We go through two compounds from patent US20250064840A1, “DRUG DELIVERY SYSTEMS BASED ON ENDOPEROXIDES USEFUL IN DIAGNOSIS AND THERAPY, AND METHODS THEREOF” (FACULDADE DE FARMÁCIA DA UNIVERSIDADE DE LISBOA, priority 2021, published 2025).

A short description of the data set: Fe(II)-triggered tetraoxane activation and API release, UHPLC-MS. The following applies: room temperature, 24 hours.

As to `COc1cccc2c1C(=O)c1c(O)c3c(c(O)c1C2=O)C[C@](O)(C(=O)CO)C[C@H]3O[C@@H]1CC(NC(=O)OCC2=CCCCC23OOC2(OO3)C3CC4CC2CC(O)(C4)C3)[C@@H](O)[C@@H](C)O1` (stereo partly drawn) [Compound IIe], the “doxorubicin release after Fe(II) activation” value (from here on “doxorubicin release”) (iron (II) bromide and N-acetylcysteine (NAC), basic pH) was “release of doxorubicin was detected”; the “doxorubicin release” value (iron (II) bromide and TEMPO) is on record as “doxorubicin was not detected”. Take `COc1cccc2c1C(=O)c1c(O)c3c(c(O)c1C2=O)C[C@](O)(C(=O)CO)C[C@H]3O[C@@H]1CC(NC(=O)OC2CCCC3(C2)OOC2(OO3)C3CC4CC(C3)CC2C4)[C@@H](O)[C@@H](C)O1` (stereo partly drawn) [IIc]: under “iron (II) bromide and TEMPO”, the “doxorubicin release” value is “doxorubicin was also detected”.
